Patent US9206463B2, “Method of testing a disinfectant or antibiotic using phenanthridium derivatives” (Montana State University, priority 2006, dated 2015)

What was measured:
Staphylococcus aureus = assay: genomic DNA yield of live cells after EMA treatment; conditions: EMA 50 μM
Listeria monocytogenes = assay: as above; conditions: EMA 50 μM
Mycobacterium avium = assay: as above; conditions: EMA 50 μM
Streptococcus sobrinus = assay: genomic DNA yield of live and dead cells after PMA or EMA treatment; assay type: cell-based; conditions: isopropanol-killed cells
8 bacterial species = assay: genomic DNA yield of live and dead cells after PMA or EMA treatment, wider spectrum of bacterial species; assay type: cell-based; conditions: all species tested, 50 μM, 5 minutes

SMILES	loss of DNA due to EMA treatment of live cells (Staphylococcus aureus)	loss of DNA due to EMA treatment of live cells (Listeria monocytogenes)	loss of DNA due to EMA treatment of live cells (Mycobacterium avium)	genomic DNA yield of dead cells after PMA treatment (Streptococcus sobrinus; PMA 3 μM)	genomic DNA yield of dead cells after PMA treatment (Streptococcus sobrinus; PMA 30 and 240 μM)	DNA from dead cells after dye treatment (8 bacterial species)
CC[n+]1c(-c2ccccc2)c2cc(N=[N+]=[N-])ccc2c2ccc(N)cc21.[Br-] [EMA]	significant loss of DNA	significant loss of DNA	significant loss of DNA	–	–	–
CC[N+](C)(CC)CCC[n+]1c(-c2ccccc2)c2cc(N=[N+]=[N-])ccc2c2ccc(N)cc21.[Cl-].[Cl-] [PMA]	–	–	–	significant DNA background	efficiently removed the DNA from dead cells	efficiently removed
